Test results from paper PMC10377513, “Goldilocks Dilemma: LPS Works Both as the Initial Target and a Barrier for the Antimicrobial Action of Cationic AMPs on E. coli” (Biomolecules, 2023).
Residues, ends and D or L forms follow the SMILES beside them.

Experiments:
[1] = tested on: E. coli ATCC 25922 lysate; test: NMR line shape analysis with sonicated cell lysate; type: binding; conditions: fit parameter of Equation (6)
Description: NMR spectra were acquired on a Bruker Avance III HD spectrometer operating at 600 MHz for ^1H, equipped with an inverse TCl cryo probe. All NMR spectra were acquired at 298 K using 5 mm tubes using standard pulse programs.
E. coli strains ATCC 25922, CCUG 70662, and NR 698 were grown until OD600 ≈ 0.6–0.8 in standard Lysogeny Broth at 37 °C from overnight colonies on agar plates. This allowed bacterial cultures to reach an exponential state of growth. CCUG 70662 was cultivated with and without 4 µg/mL of colistin in both agar and broth to allow for modification of the lipid A part of LPS [33]. After that, cells were carefully centrifuged by 6000× g for 10 min, the supernatant was discarded, and the cell pellet was resuspended in 10 mM Tris buffer with 100 mM NaCl and pH 7.4. The process was repeated two more times to wash out broth components and leftover colistin. Cells were then resuspended in 1 mL of Tris buffer, and OD600 was checked by dilution of 100 µL of the sample. The number of cells was estimated from OD600 of the sample using the formulation presented by Beal et al. (2022). Furthermore, lipid concentration was estimated to be 50 mmol per bacterial cell. The part of samples was diluted to OD = 1 in Tris buffer, and zeta potential was measured on Malvern Zetasizer Nano (Malvern Ins., Malvern, UK). The concentrated cell sample was then titrated (from 5 to 160 µL) into the 500 µL of peptide (1 mg/mL) in Tris buffer with 5% D2O and ^1H spectra was collected using double solvent suppression with excitation sculpting and presaturation (zqesgppepr) with extended delay d1 = 8 s to allow for complete relaxation of nuclei.
Due to the nature of interaction and the invisibility of the bound state line, the width ratio was estimated from the fit, and it was used for all proton signals. This value was different for each combination of AMP and bacterial sample, and it is noted in the Supplementary Materials.
For the live cell NMR, the same E. coli strains as for the MIC testing (see above) were used. In addition, the ATCC 25922 cell lysate was used to observe the effect the release of intracellular components has on peptide binding. To measure the initial AMP:bacterial cell binding, we titrated an increasing number of cells into a known and fixed concentration of AMP and monitored the signal attenuation of the peptide (Figure 4A,B). From this, we have extracted the KD for each AMP towards the bacteria using the method developed by Shortridge et al. (2008) (Figure 4C), which allows us to estimate the binding affinity based on signal broadening (see Section 2).

[2] = 1D 1H NMR line shape analysis, liposome titration; type: binding; conditions: DMPC liposomes; fit parameter of Equation (6), used for all proton signals

Compound	γB/γF-1 ratio (line widths of bound and free AMP, from fit) [1]	γB/γF-1 ratio (line widths of bound and free AMP, from fit) [2]
NCCCC[C@@H]1NC(=O)[C@H](Cc2c[nH]c3ccccc23)NC(=O)[C@H](CCCCN)NC(=O)[C@H](Cc2c[nH]c3ccccc23)NC(=O)[C@H](CCCCN)NC(=O)[C@H](Cc2c[nH]c3ccccc23)NC1=O [c(WKWKWK)] (HELM PEPTIDE1{W.K.W.K.W.K}$PEPTIDE1,PEPTIDE1,1:R1-6:R2$$$V2.0)	0.044	7.127
N=C(N)NCCC[C@@H]1NC(=O)[C@H](CCCNC(=N)N)NC(=O)[C@H](Cc2c[nH]c3ccccc23)NC(=O)[C@H](Cc2c[nH]c3ccccc23)NC(=O)[C@H](Cc2c[nH]c3ccccc23)NC(=O)[C@H](CCCNC(=N)N)NC1=O [c(WWWRRR)] (HELM PEPTIDE1{W.W.W.R.R.R}$PEPTIDE1,PEPTIDE1,1:R1-6:R2$$$V2.0)	0.216	0.247
N=C(N)NCCC[C@@H]1NC(=O)[C@H](Cc2c[nH]c3ccccc23)NC(=O)[C@H](CCCNC(=N)N)NC(=O)[C@H](Cc2c[nH]c3ccccc23)NC(=O)[C@H](CCCNC(=N)N)NC(=O)[C@H](Cc2c[nH]c3ccccc23)NC1=O [c(WRWRWR)] (HELM PEPTIDE1{W.R.W.R.W.R}$PEPTIDE1,PEPTIDE1,1:R1-6:R2$$$V2.0)	0.275	2.900
CC(C)C[C@@H]1NC(=O)[C@@H](CCCNC(=N)N)NC(=O)[C@H](CCCCN)NC(=O)[C@H](CC(N)=O)NC(=O)[C@@H](Cc2c[nH]c3ccccc23)NC(=O)[C@H](Cc2c[nH]c3ccccc23)NC1=O [c(LWwNKr)] (HELM PEPTIDE1{L.W.[dW].N.K.[dR]}$PEPTIDE1,PEPTIDE1,1:R1-6:R2$$$V2.0)	0.035	7.830
NCCCC[C@@H]1NC(=O)[C@H](CCCCN)NC(=O)[C@H](Cc2c[nH]c3ccccc23)NC(=O)[C@H](Cc2c[nH]c3ccccc23)NC(=O)[C@H](Cc2c[nH]c3ccccc23)NC(=O)[C@H](CCCCN)NC1=O [c(WWWKKK)] (HELM PEPTIDE1{W.W.W.K.K.K}$PEPTIDE1,PEPTIDE1,1:R1-6:R2$$$V2.0)	0.225	0.297
